# According to PMC7179312 (Antimicrobial Agents and Chemotherapy, 2020):
# Assays:
# KPC-2 L169P = molecular target: T1, KPC-2 L169P (Klebsiella pneumoniae, UniProt Q9F663, L168P); experiment: Kinetics of nitrocefin and ceftazidime hydrolysis by purified enzyme; format: biochemical; conditions: substrate hydrolysis by purified KPC-2 L169P
# T1 construct: 6xHis (C); made in house; host or cells: E. coli (pET28a construct; BL21(DE3) pLys is named only for wild type and D179Y)
# Method: (§1) Enzymes were mixed with various concentrations of nitrocefin in 50 mM sodium phosphate (pH 7.0)–0.1 mg/ml of bovine serum albumin (buffer A), and substrate cleavage was monitored at 490 nm every 10 s for 10 min at 37°C on a SpectraMax plate reader (Molecular Devices, San Jose, CA). Initial rates of nitrocefin cleavage were calculated and used to obtain Km and kcat values with Prism software (GraphPad, San Diego, CA).
# (§2) Substrate cleavage was monitored at 260 nm every 30 s at room temperature using a SpectraMax plate reader. The reaction was monitored until OD260 values reached a plateau. Resulting OD260 versus time reaction profiles were fitted to the following equation using Prism software: At = A∞ + (A0 − A∞) × e^−k×t, where At is absorbance at time t, A0 is initial absorbance, and A∞ is final absorbance. In this equation, k = kcat/Km × [E], which allows calculatation of kcat/Km knowing the enzyme concentration ([44]).
# KPC-2 = molecular target: T2, KPC-2 (Klebsiella pneumoniae, UniProt Q9F663); experiment: as above; format: biochemical; conditions: substrate hydrolysis by purified KPC-2
# T2 construct: 6xHis (C); made in house; host or cells: E. coli BL21(DE3) pLys, pET28a
# Method: as §1, §2
# KPC-2 D179Y = molecular target: T3, KPC-2 D179Y (Klebsiella pneumoniae, UniProt Q9F663, D178Y); experiment: as above; format: biochemical
# T3 construct: 6xHis (C); made in house; host or cells: E. coli BL21(DE3) pLys, pET28a
# Method: as §1, §2
# [1] = test system: P. aeruginosa PAM1154 carrying KPC-2::L169P (PAM4751); experiment: Checkerboard potentiation of antibiotic activity by BLIs; format: cell-based, Pseudomonas aeruginosa; conditions: for Beta-lactam MIC in the presence of BLI: PAM4751 KPC-2 L169P
# Excerpt: (§3) BLI potency was defined as PV50 (PV, potentiation value) of antibiotic potentiation. PV50 is the concentration of a BLI that is required to reduce the antibiotic MIC to the middle of the MIC range where the highest MIC is the MIC for a KPC-producing strain with no inhibitor added and the lowest MIC is the MIC for the vector-alone strain, which corresponds to complete inhibition of KPC. As a given MIC is directly related to the β-lactamase activity, PV50 might be considered the concentration of a BLI that is required to achieve half-effect of inhibition of β-lactamase activity (in whole cells) to hydrolyze an antibiotic of interest. […] However, the accurate determination of PV50 requires the MIC range to be relatively wide.
# (§4) For microbiological studies, wild-type blaKPC-2 and its mutant variants were cloned into the shuttle vector pUCP24. Resulting plasmids were transformed in the efflux-deficient strain of P. aeruginosa PAM1154 using selection on 15 μg/ml of gentamicin. Using a strain of P. aeruginosa as opposed to E. coli as a host for various cloned genes was based on the following consideration. As well documented elsewhere ([41]), P. aeruginosa has a low-permeability outer membrane; consequently, the effect of β-lactamases on MIC is amplified in P. aeruginosa compared to that in E. coli due to the slowed uptake of β-lactams. Thus, this host is appropriate to detect β-lactamase activity (as an MIC increase) of low-catalytic-efficiency enzymes that rely heavily on low permeability of the outer membrane. […] MICs were determined using the Clinical and Laboratory Standards Institute (CLSI) broth microdilution method as described in CLSI document M07-A11 ([42]). […] BLI potency was defined as PV50 (PV, potentiation value). PV50 is the minimal concentration of a BLI that is required to reduce the antibiotic MIC to the middle of the MIC range (E50) where the highest MIC is the MIC for a KPC-producing strain with no inhibitor added and the lowest MIC is the MIC for the vector-only strain, corresponding to the complete inhibition of KPC. E50 is calculated as the square root of the product of the antibiotic MICs for the KPC-producing and the vector-only strains.
# (§5) […]
# (§6) […]
# [2] = test system: P. aeruginosa PAM1154 carrying KPC-2::D179Y (PAM4639); experiment: as above; format: cell-based, Pseudomonas aeruginosa; conditions: for Beta-lactam MIC in the presence of BLI: PAM4639 KPC-2 D179Y
# Excerpt: as §3, §4, §5, §6
# [3] = test system: P. aeruginosa PAM1154 carrying pUCP24-KPC-2::D179Y (PAM4639); experiment: MIC, CLSI broth microdilution; format: cell-based, Pseudomonas aeruginosa
# Excerpt: (§7) The effects of KPC mutations on resistance to various antibiotics were investigated. For these studies, pUCP24 plasmids carrying wild-type and mutant blaKPC-2 genes as well as the pUCP24 vector were transformed into PAM1154, an efflux-deficient strain of Pseudomonas aeruginosa. In this host, the effect of β-lactamases on β-lactam MIC is amplified due to the slowed uptake of β-lactams across the low-permeability outer membrane without interference by efflux of either β-lactams or BLIs. Consequently, this host allows detection of β-lactamase activity (as an MIC increase) of low-catalytic-efficiency enzymes that rely heavily on the low permeability of the outer membrane. Using the strain that lacks efflux pumps ensures no interference from efflux in interpreting results. We next evaluated the steady-state protein expression levels in bacterial cells.
# as §4
# [4] = test system: P. aeruginosa PAM1154 carrying pUCP24-KPC-2::L169P (PAM4751); experiment: MIC, CLSI broth microdilution; format: cell-based, Pseudomonas aeruginosa
# Excerpt: as §7, §4
smiles,measurement,setting,value
"CC(C)(O/N=C(\C(=O)N[C@@H]1C(=O)N2C(C(=O)[O-])=C(C[n+]3ccccc3)CS[C@H]12)c1csc(N)n1)C(=O)O [Ceftazidime, ceftazidime]",Km,KPC-2 L169P,27 ± 6 µM
same,kcat,KPC-2 L169P,0.093 ± 0.009 s⁻¹
same,kcat,KPC-2,>2.6 s⁻¹
same,predicted Km lower than that of wild-type KPC-2,KPC-2 D179Y; KPC-2 D179Y,"more than 2,000 fold"
same,Km,"KPC-2 D179Y; KPC-2 D179Y, calculated by division of kcat by kcat/Km, read-out: predicted Km",~1 µM
same,kcat,KPC-2 D179Y; substrate hydrolysis by purified KPC-2 D179Y,0.0088 ± 0.0003 s⁻¹
same,Km,"KPC-2 D179Y; substrate hydrolysis by purified KPC-2 D179Y, read-out: Km",< 5 µM
"CCN1CCN(C(=O)N[C@@H](C(=O)N[C@@H]2C(=O)N3[C@@H]2SC(C)(C)[C@@H]3C(=O)O)c2ccccc2)C(=O)C1=O [Piperacillin, piperacillin]",Antibiotic MIC with avibactam at 4 μg/ml,"[1]; PAM4751 KPC-2::L169P, avibactam 4 μg/ml",0.5 µg/mL
same,"Antibiotic MIC, No BLI","[1]; PAM4751 KPC-2::L169P, no BLI",16 µg/mL
same,Beta-lactam MIC in the presence of BLI,[1]; avibactam 0 µg/ml,16 µg/mL
same,Beta-lactam MIC in the presence of BLI,[1]; avibactam 0.008 µg/ml,16 µg/mL
same,Beta-lactam MIC in the presence of BLI,[1]; avibactam 0.031 µg/ml,16 µg/mL
same,Beta-lactam MIC in the presence of BLI,[1]; avibactam 0.06 µg/ml,16 µg/mL
same,Beta-lactam MIC in the presence of BLI,[1]; avibactam 0.5 µg/ml,4 µg/mL
same,Beta-lactam MIC in the presence of BLI,[1]; avibactam 1 µg/ml,2 µg/mL
same,Beta-lactam MIC in the presence of BLI,[1]; avibactam 2 µg/ml,1 µg/mL
same,Beta-lactam MIC in the presence of BLI,[1]; avibactam 4 µg/ml,0.5 µg/mL
same,Beta-lactam MIC in the presence of BLI,[1]; avibactam 64 µg/ml,0.03 µg/mL
same,Beta-lactam MIC in the presence of BLI,[1]; vaborbactam 0 µg/ml,16 µg/mL
same,Beta-lactam MIC in the presence of BLI,[1]; vaborbactam 0.008 µg/ml,16 µg/mL
same,Beta-lactam MIC in the presence of BLI,[1]; vaborbactam 0.031 µg/ml,16 µg/mL
same,Beta-lactam MIC in the presence of BLI,[1]; vaborbactam 0.06 µg/ml,16 µg/mL
same,Beta-lactam MIC in the presence of BLI,[1]; vaborbactam 0.5 µg/ml,4 µg/mL
same,Beta-lactam MIC in the presence of BLI,[1]; vaborbactam 1 µg/ml,1 µg/mL
same,Beta-lactam MIC in the presence of BLI,[1]; vaborbactam 2 µg/ml,0.5 µg/mL
same,Antibiotic MIC with avibactam at 4 μg/ml,"[2]; PAM4639 KPC-2::D179Y, avibactam 4 μg/ml",1 µg/mL
same,"Antibiotic MIC, No BLI","[2]; PAM4639 KPC-2::D179Y, no BLI",32 µg/mL
same,Antibiotic MIC with vaborbactam at 8 μg/ml,"[2]; PAM4639 KPC-2::D179Y, vaborbactam 8 μg/ml",0.25 µg/mL
same,Beta-lactam MIC in the presence of BLI,[2]; avibactam 0 µg/ml,32 µg/mL
same,Beta-lactam MIC in the presence of BLI,[2]; avibactam 0.008 µg/ml,32 µg/mL
same,Beta-lactam MIC in the presence of BLI,[2]; avibactam 0.031 µg/ml,32 µg/mL
same,Beta-lactam MIC in the presence of BLI,[2]; avibactam 0.06 µg/ml,32 µg/mL
same,Beta-lactam MIC in the presence of BLI,[2]; avibactam 0.5 µg/ml,8 µg/mL
same,Beta-lactam MIC in the presence of BLI,[2]; avibactam 1 µg/ml,2 µg/mL
same,Beta-lactam MIC in the presence of BLI,[2]; avibactam 2 µg/ml,2 µg/mL
same,Beta-lactam MIC in the presence of BLI,[2]; avibactam 4 µg/ml,1 µg/mL
same,Beta-lactam MIC in the presence of BLI,[2]; avibactam 8 µg/ml,0.5 µg/mL
same,Beta-lactam MIC in the presence of BLI,[2]; vaborbactam 0 µg/ml,32 µg/mL
same,Beta-lactam MIC in the presence of BLI,[2]; vaborbactam 0.008 µg/ml,32 µg/mL
same,Beta-lactam MIC in the presence of BLI,[2]; vaborbactam 0.031 µg/ml,32 µg/mL
same,Beta-lactam MIC in the presence of BLI,[2]; vaborbactam 0.06 µg/ml,32 µg/mL
same,Beta-lactam MIC in the presence of BLI,[2]; vaborbactam 0.5 µg/ml,4 µg/mL
same,Beta-lactam MIC in the presence of BLI,[2]; vaborbactam 1 µg/ml,1 µg/mL
same,Beta-lactam MIC in the presence of BLI,[2]; vaborbactam 2 µg/ml,0.5 µg/mL
same,reduction of MIC vs wild-type KPC-2 strain,[3]; D179Y strain,4 fold
same,MIC,"[3]; Pseudomonas aeruginosa, PAM4639, pUCP24-KPC-2::D179Y, drug alone",32 µg/mL
same,reduction of MIC vs wild-type KPC-2 strain,[4]; L169P strain,8 fold
same,MIC,"[4]; Pseudomonas aeruginosa, PAM4751, pUCP24-KPC-2::L169P, drug alone",16 µg/mL

# Like-named read-outs stand apart in the source and are kept apart here.
